Source: publication PMC6886523 (Nature chemical biology, 2017)

Test system: Mtb
Type: cell-based

For `N#C[C@@H]1N[C@@H](CO)[C@H]1c1ccc(-c2ccccc2F)cc1` [BRD4592, (2R,3S,4R)-3-(2′-fluoro-[1,1′-biphenyl]-4-yl)-4-(hydroxymethyl)azetidine-2-carbonitrile], the “activity against a diverse panel of Mtb clinical isolates, including drug-resistant strains” value was “comparable activity”.
